According to paper PMC11628845 (Acta Pharmaceutica Sinica. B, 2024):

Test system: ETV-resistant HBV (rtL180M + A181C + M204V)
Experiment: microbe, parasite or virus in culture
Type: cell-based
Conditions: Hepatitis B virus, Huh-7, read-out: HBV DNA IC50, rt180M181C204V

COc1ccc(Cc2[nH]/c(=N/C(=O)C34CC5CC(CC(C5)C3)C4)n(C)c2Cc2ccc(OC)c(OC)c2)cc1 [11a, (Z)-N-(5-(3,4-Dimethoxybenzyl)-4-(4-methoxybenzyl)-1-methyl-1,3-dihydro-2H-imidazole-2-ylidene)adamantane-1-carboxamide]
IC50: 13.7 µM
